The values below come from patent US20180099015A1 (ADCURE BIOTECHNOLOGIES, published 2018).

Protein sequences, listed by entry. Tags and fused reporters are not part of them. Residues count along the entry.
UniProt P78310, 20-237 limits assumed: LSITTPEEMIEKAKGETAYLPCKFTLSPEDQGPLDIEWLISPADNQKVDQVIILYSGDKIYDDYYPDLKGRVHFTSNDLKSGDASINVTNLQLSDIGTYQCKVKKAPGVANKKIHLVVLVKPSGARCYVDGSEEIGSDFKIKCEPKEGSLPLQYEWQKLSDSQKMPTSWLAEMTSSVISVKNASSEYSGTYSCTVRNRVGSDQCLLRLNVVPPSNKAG

The target of this assay is sCAR (UniProt P78310). Put plainly: not stated; row marked with an asterisk that has no footnote.

Regarding Ad41L partner of the row Ad41L-sCAR*, the Kd was found to be 0.0073 µM.
As for Ad9 partner of the row Ad9-sCAR*, the figure is 6.4 µM.

As a reminder, the Kd is the free concentration of one partner at which half of the binding sites on the other are occupied at equilibrium, for simple one-to-one binding. Read a low Kd as tighter binding.
